A mixed list of measured activities; the numbers were collected in NIAID ChemDB.

Common to all: tests in culture; agent: HIV-1; measure: EC50

Lines come from different laboratories, so protocols vary. ECn: concentration that inhibits the pathogen or its effect by n%. An empty or dashed field is not shown. Two numbers with a dash give a range or band.

| structure | changes | strain | cells | result |
|---|---|---|---|---|
| O=C(O)c1cn(Cc2ccccc2)c2ccc(Cc3cccc(Cl)c3F)c(O)c2c1=O | - | IIIB | C8166 | 3.54 µM |
| Cc1ccc(-c2n[nH]c(=S)n2N)cc1 | RT-Y181C | NNRTI-resistant N119 | MT-4 | >100 µM |
| OC[C@H]1O[C@@H](On2cnc3c(Cl)ncnc32)CS1 | - | - | MT-4 | >100 µg/mL |
| Cc1c(-c2c([C@H](OC(C)(C)C)C(=O)O)cnc3ccccc23)cc(F)c2c1CCCO2 | - | - | PBMC | 0.021 µM |
| COc1cc(C)cc2c(-c3c(O)cc(O)c4c(C)nc(C)cc34)cc(-c3cc(-c4c(O)cc(O)c5c(C)nc(C)cc45)c4cc(C)cc(OC)c4c3O)c(O)c12 | - | RF | CEM + CEM-SS | 29 µM |
| O=C1Nc2ccc(Cl)cc2[C@@](C#CC2CC2)(C(F)(F)F)[C@H]1OCc1ccncc1 | - | RF | MT-2 | <0.019 µM |
| O=c1[nH]cnc2c1ncn2O[C@H]1CS[C@@H](CO)O1 | - | - | MT-4 | >10 µg/mL |
| O=C1O/C(=C\Cn2ccc(=O)[nH]c2=O)C(OCc2ccccc2)=C1O | - | - | MT-4 | >50 µg/mL |
| COc1cccc2c1nc(-c1ccccc1F)n2CCC(C)C | - | IIIB | MT-4 | 0.0083 µg/mL |
| COc1ccc(-c2nnc(SSc3nnc(-c4ccc(OC)cc4)n3N)n2N)cc1 | - | IIIB | MT-4 | >100 µM |
| COc1cccc2c1nc(-c1ccccc1F)n2CC#N | - | IIIB | MT-4 | >110 µg/mL |
| COCc1nc(Nc2ccc(C#N)cc2)nc(Nc2c(C)cc(/C=C/C#N)cc2C)c1C(=O)NCC(OC)OC | - | K103N + Y181C | MT4 CMV-EGFP | 0.0166 µM |
| Cc1cn([C@@H]2O[C@H](COC(=O)C(C)C)C3(OS(=O)(=O)C=C3N)[C@H]2O[Si](C)(C)C(C)(C)C)c(=O)n(C)c1=O | - | - | CEM + CEM/0 | ≥10 µM |
| CC1(C)C=C2C3CCC4[C@@]5(C)CC[C@H](O)C(C)(C)C5[C@H](O)C[C@@]4(C)[C@]3(C)CC[C@@]2(C)CC1 | - | NL4-3 | MT-2 | 64.36 µM |
| C[C@@H](O)[C@H](N)C(N)=O | - | IIIB | CEM | 500 µM |
| COCc1nc(Nc2ccc(C#N)cc2)nc(Nc2c(C)cc(/C=C/C#N)cc2C)c1C(=O)NCc1cccnc1 | - | L1001+K103N | MT4 CMV-EGFP | 0.0269 µM |
| CC=CCn1c(-c2ccccc2F)nc2c(OC)cccc21 | - | IIIB | MT-4 | 0.02 µg/mL |
| Cc1cn([C@@H]2O[C@H](CN3CCNCC3)C3(OS(=O)(=O)C=C3N)[C@H]2O[Si](C)(C)C(C)(C)C)c(=O)n(C)c1=O | - | - | MT-4 | ≥50 µM |
| COc1ccc(-c2nnc(S(=O)(=O)[C@@H]3O[C@H](COC(C)=O)[C@@H](OC(C)=O)[C@H](OC(C)=O)[C@H]3OC(C)=O)n2N)cc1 | - | IIIB | MT-4 | >100 µM |
| Cc1cn([C@@H]2O[C@@H](CO)CC2(F)F)c(=O)[nH]c1=O | - | LAV | PBMC | >100 µM |
| CC1(C)C(=O)CC[C@@]2(C)C1CC[C@]1(C)C2CCC2C3=CC(C)(C)[C@H](O)C[C@]3(C)CC[C@]21C | - | NL4-3 | MT-2 | 20–100 µM |
| O=C1O/C(=C\Cn2cc(C(F)(F)F)c(=O)[nH]c2=O)C(O)=C1O | - | - | MT-4 | >50 µg/mL |
| OC[C@@H]1OC[C@H](On2cnc3c(Cl)ncnc32)O1 | - | - | MT-4 | >100 µg/mL |
| COCCNC(=O)c1c(COC)nc(Nc2ccc(C#N)cc2)nc1Nc1c(C)cc(/C=C/C#N)cc1C | - | K103N+Y101C | MT4 CMV-EGFP | 0.0166 µM |
| Cc1cnc(C(O)c2cnc(Nc3ccc(C#N)cc3)nc2Nc2c(C)cc(/C=C/C#N)cc2C)s1 | - | PSI (IIIB) | MT-4 | 708 µM |
| CC(C)C[C@H](N)C(=O)O | - | IIIB | CEM | 500 µM |
| CC(C)=CCOC[C@H]1O[C@@H](n2cc(C)c(=O)n(C)c2=O)[C@H](O[Si](C)(C)C(C)(C)C)C12OS(=O)(=O)C=C2N | - | - | MT-4 | 6.46 ± 2.19 µM |
| Nc1ccc(CO[C@H]2C(=O)Nc3ccc(Cl)cc3[C@@]2(C#CC2CC2)C(F)(F)F)cc1 | RT-L100I K103N | - | - | <3.848 µM |
| COCc1nc(Nc2ccc(C#N)cc2)nc(Nc2c(C)cc(/C=C/C#N)cc2C)c1C(=O)N1CCC(O)CC1 | - | K103N+Y101C | MT4 CMV-EGFP | 1.7 µM |
| COc1cc2c(c(O)c1OC)-c1c(cc3c(c1O)OCO3)C[C@H](C)[C@H](C)C2 | - | IIIB | MT-4 | 5.67 µg/mL |
| Nc1ccn([C@H]2O[C@@H](CO)CC2(F)F)c(=O)n1 | - | LAV | PBMC | >100 µM |
| [N-]=[N+]=N[C@]1(CO)O[C@@H](n2cnc3c(=O)[nH]cnc32)C[C@@H]1O | - | - | A301 + A3.01 | 0.07 µM |
| Cc1cc(/C=C/C#N)cc(C)c1Nc1nc(Nc2ccc(C#N)cc2)ncc1C(O)C(C)C | - | K103N + Y181C | MT-4 | 0.575 µM |
| COCc1nc(Nc2ccc(C#N)cc2)nc(Nc2c(C)cc(/C=C/C#N)cc2C)c1C(=O)NC1CC1 | - | L1001+K103N | MT4 CMV-EGFP | 0.0155 µM |
| COc1cccc2c1nc(-c1ccccc1F)n2Cc1ccccc1C#N | - | IIIB | MT-4 | 0.061 µg/mL |
| Cc1cn([C@@H]2O[C@H](CN3CCN(C)CC3)C3(OS(=O)(=O)C=C3N)[C@H]2O[Si](C)(C)C(C)(C)C)c(=O)n(C)c1=O | - | - | MT-4 | >50 µM |
| COCc1nc(Nc2ccc(C#N)cc2)nc(Nc2c(C)cc(/C=C/C#N)cc2C)c1C(=O)NCc1cccs1 | - | K103N+Y101C | MT4 CMV-EGFP | 0.0912 µM |
| NCC(=O)O | - | IIIB | CEM | 500 µM |
| C=C1O[C@@H](n2cc(C)c(=O)n(C)c2=O)[C@H](O[Si](C)(C)C(C)(C)C)[C@]12OS(=O)(=O)C=C2N | - | - | CEM + CEM/0 | 3 µM |
| O=c1[nH]cnc2c1ncn2[C@H]1O[C@@H](CO)CC1(F)F | - | LAV | PBMC | >100 µM |
| COc1ncnc2c1ncn2O[C@H]1CO[C@@H](CO)O1 | - | - | MT-4 | >100 µg/mL |
| CCN1C[C@H](C)n2c(c(O)c3c(=O)n(Cc4ccc(F)c(Cl)c4)nc(N4CCN(C)S4(=O)=O)c32)C1=O | - | IIIB | MT-4 | 0.0019 µM |
| Cc1ccnc(SC(F)(F)c2nc3ccccc3o2)n1 | RT-L100I | OC/100(RT-L100I | - | 0.38 µM |
| COc1cc([C@H]2O[C@@H](c3ccc(O)cc3)[C@H](C)[C@@H]2C)ccc1O | - | IIIB | MT-4 | 3.38 µg/mL |
| Cc1cc(/C=C/C#N)cc(C)c1Nc1nc(Nc2ccc(C#N)cc2)ncc1C(O)OCc1cccnc1 | - | L100I + K103N | MT-4 | 0.263 µM |
| Nn1c(S[C@@H]2O[C@H](CO)[C@@H](O)[C@H](O)[C@H]2O)nnc1-c1ccc(Cl)cc1 | - | IIIB | MT-4 | >100 µM |
| NCC(O)CN | - | IIIB | CEM | 1000 µM |
| O=c1[nH]c(=O)n([C@H]2O[C@@H](CO)CC2(F)F)cc1I | - | LAV | PBMC | >100 µM |
| Clc1ccc(-c2nnc3ssc4nnc(-c5ccc(Cl)cc5)n4n23)cc1 | RT-Y181C | NNRTI-resistant N119 | MT-4 | >100 µM |
| Cc1cc(/C=C/C#N)cc(C)c1Nc1nc(Nc2ccc(C#N)cc2)ncc1C(O)OCCO | - | PSI (IIIB) | MT-4 | 269 µM |
| O=C1O/C(=C\Cn2ccc(=O)[nH]c2=O)C(O)=C1O | - | - | MT-4 | >50 µg/mL |
| CC1(C)C=C2C3CCC4[C@@]5(C)CCC(=O)C(C)(C)C5[C@H](O)C[C@@]4(C)[C@]3(C)CC[C@@]2(C)CC1 | - | NL4-3 | MT-2 | 23.8 µM |
| CCN1C[C@H](C)n2c(c(O)c3c(=O)n(Cc4ccc(F)c(Cl)c4)nc(C(=O)NC)c32)C1=O | - | IIIB | MT-4 | 0.003 µM |
| CNC(O)c1cnc(Nc2ccc(C#N)cc2)nc1Nc1c(C)cc(/C=C/C#N)cc1C | - | L100I + K103N | MT-4 | 0.01622 µM |
| Cc1ccc(-c2nnc3sc(CN4C(=O)c5ccccc5C4=O)nn23)cc1 | - | IIIB | MT-4 | >100 µM |
| O=C1Nc2ccc(Cl)cc2[C@@](C#CC2CC2)(C(F)(F)F)[C@H]1O | - | RF | MT-2 | <0.637 µM |
| FC(F)(Sc1ncccn1)c1nc2ccccc2o1 | - | IIIB | - | 3.36 µM |
| O=C1CC(C#CC2CC2)(C(F)(F)F)c2cc(Cl)ccc2N1 | RT-K103N | - | - | <0.177 µM |
| COCc1nc(Nc2ccc(C#N)cc2)nc(Nc2c(C)cc(/C=C/C#N)cc2C)c1C(=O)NCCNC(C)=O | - | MDR | MT4 CMV-EGFP | 0.209 µM |
| COc1cccc2c1nc(-c1ccccc1F)n2Cc1ccc2ccccc2c1 | - | IIIB | MT-4 | >4 µg/mL |

Again, the opening 3 rows:

{"structure": "O=C(O)c1cn(Cc2ccccc2)c2ccc(Cc3cccc(Cl)c3F)c(O)c2c1=O", "strain": "IIIB", "cells": "C8166", "result": "3.54 µM"}
{"structure": "Cc1ccc(-c2n[nH]c(=S)n2N)cc1", "changes": "RT-Y181C", "strain": "NNRTI-resistant N119", "cells": "MT-4", "result": ">100 µM"}
{"structure": "OC[C@H]1O[C@@H](On2cnc3c(Cl)ncnc32)CS1", "cells": "MT-4", "result": ">100 µg/mL"}